A mixed list of measured activities; the numbers were collected in NIAID ChemDB.

All rows: whole-cell or culture tests; organism: Candida albicans; read-out: MIC80

An empty or dashed field is not shown.

| smiles | strain or isolate | result |
|---|---|---|
| Oc1ccc(C=Nc2ccc3cccc(O)c3n2)cc1 |  | 15.63 µg/mL |
| OC(Cn1cncn1)(Cn1cncn1)c1ccc(F)cc1F | ATCC 76615 | 0.82 µM |
| NC(N)=Nc1ccc(SCc2ccccc2)cc1 | ATCC 44859 | 250 µM |
| C=CCSSSCC=C | 39 isolates | 1 µg/mL |
| COC(=O)[C@H]1[C@@H]2C[C@@H](O[C@@H]3O[C@H](C)[C@@H](O)[C@H](N)[C@@H]3O)/C=C/C=C/C=C/C=C/C=C/C=C/C=C/[C@H](C)[C@@H](O)[C@H](C)[C@H](C)OC(=O)C[C@H](O)C[C@H](O)[C@@H](O)CC[C@H](O)C[C@H](O)C[C@](O)(C[C@@H]1O)O2 | ATCC 76615 | 0.27 µM |
| Oc1cccc2ccc(/C=C/c3cccc(Cl)c3)nc12 |  | 7.81 µg/mL |
| CO[C@@H]1[C@@H](O)[C@H](O[C@@H]2[C@@H](O)[C@H](O[C@H]3[C@H](O)[C@@H](O)[C@H](O[C@H]4[C@H](O[C@H]5CC[C@]6(C)C7=C[C@H](O)[C@]89C(=O)O[C@@](C)(CCCC(C)C)[C@H]8CC[C@@]9(C)[C@@H]7CC[C@H]6C5(C)C)OC[C@@H](O[C@@H]5O[C@H](CO)[C@@H](O)[C@H](O[C@@H]6O[C@H](CO)[C@@H](O)[C@H](OC)[C@H]6O)[C@H]5O)[C@@H]4O)O[C@@H]3C)O[C@H](CO)[C@H]2O)O[C@H](CO)[C@H]1O | ATCC 76615 | 2.8 µM |
| Oc1ccccc1N=Cc1ccc2cccc(O)c2n1 |  | 31.25 µg/mL |
| CCCCCSc1ccc(N=C(N)N)cc1 | ATCC 44859 | 125 µM |
| COc1cnc2c3c(nccc13)C1SC=CC1C2=O |  | >64 µg/mL |
| CO[C@@H]1[C@@H](O)[C@H](O[C@@H]2[C@@H](O)[C@H](O[C@H]3[C@H](O)[C@@H](O)[C@H](O[C@H]4[C@H](O[C@H]5CC[C@]6(C)C7=C[C@H](O)[C@]89C(=O)O[C@@](C)(CCC=C(C)C)[C@H]8CC[C@@]9(C)[C@@H]7CC[C@H]6C5(C)C)OC[C@@H](O[C@@H]5O[C@H](CO)[C@@H](O)[C@H](O[C@@H]6O[C@H](CO)[C@@H](O)[C@H](OC)[C@H]6O)[C@H]5O)[C@@H]4O)O[C@@H]3C)O[C@H](CO)[C@H]2O)O[C@H](CO)[C@H]1O | ATCC 76615 | 2.81 µM |
| CCCCSc1ccc(N=C(N)N)cc1 | ATCC 44859 | 1000 µM |
| CO[C@@H]1[C@@H](O)[C@H](O[C@@H]2[C@@H](O)[C@H](O[C@H]3[C@H](O)[C@@H](O)[C@H](O[C@H]4[C@H](O[C@H]5CC[C@]6(C)C7=C[C@H](O)[C@]89C(=O)O[C@@](C)(CCC=C(C)C)[C@@]8(O)CC[C@@]9(C)[C@@H]7CC[C@H]6C5(C)C)OC[C@@H](O[C@@H]5O[C@H](CO)[C@@H](O)[C@H](O[C@@H]6O[C@H](CO)[C@@H](O)[C@H](OC)[C@H]6O)[C@H]5O)[C@@H]4O)O[C@@H]3C)O[C@H](CO)[C@H]2O)O[C@H](CO)[C@H]1O | ATCC 76615 | 2.78 µM |
| Cc1ccc(Sc2ccc(N=C(N)N)cc2)cc1 | ATCC 44859 | 250 µM |
| C=CCSSCC=C | 39 isolates | 4 µg/mL |

The last 2 rows once more:

Cc1ccc(Sc2ccc(N=C(N)N)cc2)cc1 ; strain or isolate: ATCC 44859 ; result: 250 µM
C=CCSSCC=C ; strain or isolate: 39 isolates ; result: 4 µg/mL

MIC50, MIC90 and the like: level of inhibition, or share of isolates inhibited. Lines come from different laboratories, so protocols vary.